Assay results from PMC7343802, “The development of the dog heartworm is highly sensitive to sterols which activate the orthologue of the nuclear receptor DAF-12” (Scientific Reports, 2020).

Assays:
DimDAF-12_R674K = assay: cell-based transactivation assay, mutant R674K
DimDAF-12_Q713L = assay: cell-based transactivation assay, mutant Q713L; conditions: 0.01 or 0.1 µM
DimDAF-12_R640C = assay: cell-based transactivation assay, mutant R640C
DimDAF-12 T637V/R678V = assay: cell-based transactivation assay, double mutant T637V/R678V; conditions: 0.01 or 0.1 µM
[1] = tested on: DimDAF-12 T637V/R674K/R678V; assay: cell-based transactivation assay, triple mutant T637V/R674K/R678V; conditions: 0.01 or 0.1 µM
DimDAF-12_Q713E = assay: cell-based transactivation assay, mutant Q713E; conditions: 0.01 or 0.1 µM

Row | SMILES | DA-dependent luciferase activity of mutant versus wild-type (DimDAF-12_R674K; 0.01 or 0.1 µM) | DA-dependent luciferase activity of mutant versus wild-type (DimDAF-12_Q713L) | DA-dependent luciferase activity of mutant versus wild-type (DimDAF-12_R640C; 0.01 µM) | DA-dependent luciferase activity of mutant versus wild-type (DimDAF-12 T637V/R678V) | DA-dependent luciferase activity of mutant versus wild-type [1] | DA-dependent luciferase activity of mutant versus wild-type (DimDAF-12_R674K; 0.01 µM) | DA-dependent luciferase activity of mutant versus wild-type (DimDAF-12_Q713E) | DA-dependent luciferase activity of mutant versus wild-type (DimDAF-12_R640C; 0.1 µM)
1 | CC(CCCC(C)C1CCC2C3=CCC4CC(=O)CCC4(C)C3CCC21C)C(=O)O [Δ7-DA, (25S)-Δ7-dafachronic acid] | did not affect | increasing | significant increase | significantly increased | significantly increased | – | – | –
2 | CC(CCCC(C)C1CCC2C3CCC4=CC(=O)CCC4(C)C3CCC12C)C(=O)O (stereo not drawn) | – | compromised the activity | significant decrease | conserved | completely abolished | significantly decreased | compromised the activity | increase
